The record followed here is ChEMBL document CHEMBL5236559 (J Med Chem, 2021).

Activity calls are given as the source filed them. The rule behind the calls is not given here.

For the test, the species on record is Rattus norvegicus. In words: Inhibition of recombinant rat TrxR expressed in Escherichia coli upto 100 nM using DTNB as substrate incubated for 30 mins in presence of NADPH by DTNB reduction assay.
In the case of `Nc1cccc([As]2SCCCS2)c1`, the inhibition entry is “Active”. Take `Nc1ccc([As]2SCCCS2)cc1`: the inhibition result was “Active”.

Turning to `Nc1ccccc1[As]1SCCCS1`, the inhibition entry was “Active”.
